According to ChEMBL document CHEMBL6177980 (J Med Chem, 2025):

How the values were obtained:
[1] = system: Severe fever with thrombocytopenia syndrome virus; experiment: Antiviral activity against SFTSV infected in African green monkey Vero cells assessed as reduction in viral replication pretreated for 1 hr followed by viral infection for 1 hr and subsequent replacement of fresh medium containing compound measured after 48 hrs post-infection by RT-qPCR analysis
[2] = Selectivity index, ratio of CC50 for cytotoxicity against African green monkey Vero cells to EC50 for antiviral activity against SFTSV infected in African green monkey Vero cells assessed as reduction in viral replication
[3] = system: Mammarenavirus choriomeningitidis; experiment: Antiviral activity against LCMV infected in human A549 cells assessed as reduction in viral replication pretreated for 1 hr followed by viral infection for 1 hr and subsequent replacement of fresh medium containing compound measured after 48 hrs post-infection by RT-qPCR analysis

CC(C)C(=O)OC[C@@]1(F)O[C@@H](n2ccc(=O)n(COC(=O)c3cccnc3)c2=O)[C@H](OC(=O)C(C)C)[C@@H]1OC(=O)C(C)C
EC50 [1]: 890 nM
Ratio CC50/EC50 [2]: > 112
EC50 [3]: 150 nM
